Literature values as cited in PMC5540582.

Biological target: HIV-1 capsid protein CA CA (Human immunodeficiency virus 1) (UniProt O93182)

Cyclophilin A (from UniProt P62937)
Kd: 16 µM
